Reference: publication PMC6746850, “Identification and Molecular Characterization of Superoxide Dismutases Isolated From A Scuticociliate Parasite: Physiological Role in Oxidative Stress” (Scientific Reports, 2019)

Amino acid sequences for entries named in this document (tags omitted). Residues count along the entry.
UniProt A0A481XSU7, 22-249 limits assumed: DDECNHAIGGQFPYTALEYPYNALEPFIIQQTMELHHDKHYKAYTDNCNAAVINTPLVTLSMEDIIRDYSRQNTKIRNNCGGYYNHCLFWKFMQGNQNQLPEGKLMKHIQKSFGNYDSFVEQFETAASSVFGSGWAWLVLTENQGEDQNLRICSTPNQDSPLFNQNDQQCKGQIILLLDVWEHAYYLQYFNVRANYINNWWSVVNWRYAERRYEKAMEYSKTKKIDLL

Molecular target: Pd-Fe-SOD (FSD) (Philasterides dicentrarchi, UniProt A0A481XSU7)
Experiment: SOD activity staining (NBT) in native PAGE
Format: biochemical
Conditions: 100 μM inhibitor; anion-exchange fraction P2 (methods also describe 30 min treatment of live ciliates before lysis)

[N-]=[N+]=N
complete inhibition at 100 μM: both NaN3 and RESV produced complete inhibition of the activity of SOD enzymes
